A mixed list of measured activities; the numbers were collected in NIAID ChemDB.

Common to all: whole-cell or culture tests; species: Candida albicans

Neighbouring rows are from separate reports. An empty or dashed field is not shown. ECn is the concentration giving n% inhibition of infection, replication or growth. A number after MIC or MFC names an inhibition level or a share of isolates. a–b is a range or a potency band.

structure | strain | read-out | method | value
Nc1[nH]c(=O)ncc1F | 1001 | MIC |  | 1.56 µg/mL
O=[N+]([O-])c1ccc(/C=N\O)cc1 |  | MIC |  | 6020 µM
CC#CC#CC#Cc1ccccc1 | ATCC 885-653 | MIC |  | 50 µg/mL
OC[C@@H]1CO[C@](Cn2ccnc2)(c2ccc(-c3ccccc3)cc2)O1 | 44 strains | Mean MIC |  | 102 µg/mL
CC(=O)[C@@H]1[C@H](O)[C@@H](O)C(=O)C=C[C@H]1C |  | MIC |  | 50 µg/mL
Clc1ccc(C(c2ccc3ccccc3c2)n2ccnc2)cc1 | 23 strains | MIC50 |  | 4 µg/mL
COc1ccc2c(c1)CCN1C(NCCCCCCC(C)C)NCCC21 | NFI0124 | MIC |  | 16 µg/mL
O=[N+]([O-])c1ccc(CNc2cccc(Cn3ccnc3)c2)cc1 | 27 strains | Mean MIC |  | 125 µg/mL
COc1ccc(C(=O)Nc2cc([N+](=O)[O-])ccc2O)cc1 |  | MIC |  | 12.5 µg/mL
CS/C(N)=N/NC(=O)c1ccc(F)cc1 |  | MIC |  | >100 µg/mL
Clc1ccccc1CNc1cccc(Cn2ccnc2)c1 | 27 strains | Mean MIC |  | 81.5 µg/mL
CO[C@H]1[C@@H](O)[C@H](n2ccc(=O)[nH]c2=O)O[C@@H]1[C@@H](O[C@H]1OC(C(N)=O)=C[C@H](O)[C@@H]1O)C(N)=O | YU-1200 | MIC |  | >100 µg/mL
O=C(Nc1ccccc1Cn1ccnc1)c1ccc([N+](=O)[O-])cc1[N+](=O)[O-] | 27 strains | Mean MIC |  | 67.77 µg/mL
CCCCCOc1ccc(O)c(C(=O)NN)c1 | Clinical isolates | MIC |  | 125–250 µg/mL
CO[C@H]1[C@@H](O)[C@H](n2ccc(=O)[nH]c2=O)O[C@@H]1[C@@H](O[C@H]1OC(C(=O)N[C@H]2CCC[C@@H](C)NC2=O)=C[C@H](O)[C@@H]1O)C(N)=O | YU-1200 | MIC |  | >100 µg/mL
CCCCCCCCN1CCN(c2ccc(C(=O)N[C@H]3CCCNC(=O)C4C[C@H](N)CN4C(=O)C(C(C)O)NC(=O)C(CCc4ccc(O)cc4)NC(=O)C4C[C@@H](O)CN4C(=O)C(C(C)O)NC3=O)cc2)CC1 | ATCC CCH442 | MIC |  | 1.56 µg/mL
COc1ccc(C(c2ccc3ccccc3c2)n2ccnc2)cc1 | 23 strains | MIC50 |  | 8 µg/mL
O/N=C\c1ccc(O)cc1 |  | MIC100 | broth dilution | >7290 µM
O=[N+]([O-])c1ccc2oc(Cc3ccc(Cl)cc3)nc2c1 |  | MIC |  | 12.5 µg/mL
CS(=O)(=O)OC[C@H]1CO[C@](Cn2ccnc2)(c2ccc(-c3ccccc3)cc2)O1 | 44 strains | EC50 |  | >256 µg/mL
CCCCCCCCNC1NCCC2c3ccc(OC)cc3CCN12 | NFI2103 | MIC |  | 32 µg/mL
COc1ccc(C(=O)NNC(N)=S)cc1 |  | MIC |  | >100 µg/mL
COc1ccc(/C=N\O)cc1 |  | MFC100 | broth dilution | >6620 µM
COc1ccc(CC(c2ccc(OC)cc2)n2ccnc2)cc1 | 28 strains | MIC50 |  | 32 µg/mL
O=C(Nc1ccc(Cn2ccnc2)cc1)c1ccccc1Cl | 27 strains | Mean MIC |  | 150 µg/mL
CNCCN(C)c1ccc2[nH]c3cc4c(=O)[nH]n(-c5ccccc5)c(=O)c4cc3c2c1 | Clinical isolates | MIC50 | agar | 16 µg/mL
O=C(Cc1ccc(Cl)cc1)Nc1cc([N+](=O)[O-])ccc1O |  | MIC |  | 12.5 µg/mL
CCC1CCCC(CC)C(=O)NCCCC(CC)C(OC2OC(C)C(O)C(N)C2OC2OC(CO)C(OC3OC(CO)C(O)C(O)C3O)C(O)C2O)CC1 | 12 strains | Mean MIC |  | 18 µg/mL
CCCCCCCCNC1NCCC2c3ccccc3CCN12 | NFI2103 | MIC80 |  | 16 µg/mL
COc1ccc(C(C(Cc2ccc(Cl)cc2Cl)c2ccc(Cl)cc2)n2cnnc2)cc1 | 28 strains | EC50 |  | >256 µg/mL
CCC(O)/C=C/C=C/C=C/C(=O)OC[C@H]1O[C@@H](O[C@H]2[C@H](OC(=O)/C=C/C=C/CC(O)/C(C)=C/C=C/CCC(C)CC)[C@@H](O)[C@@]3(OCc4cc(O)cc(O)c43)O[C@@H]2CO)[C@H](O)[C@@H](O)[C@H]1O | IAM4888 | MIC |  | 1.6 µg/mL
Clc1ccc(C(c2ccc3ccccc3c2)n2ccnc2)s1 | 23 strains | MIC90 |  | 8 µg/mL
O=C(Nc1cc([N+](=O)[O-])ccc1O)c1ccccc1 |  | MIC |  | 12.5 µg/mL
CC(C)c1cccc(-c2nc3[n+]([nH]2)CCN([C@H](C)[C@](O)(C[n+]2cnc[nH]2)c2ccc(F)cc2F)C3)c1 | SC5314 | MIC |  | 0.0625 µg/mL
O=[N+]([O-])c1cccc(/C=N\O)c1 |  | MIC100 |  | 6020 µM
O=C(OCC1COC(Cn2ccnc2)(c2ccc(-c3ccccc3)cc2)O1)c1ccccc1 | 44 strains | Mean MIC |  | 18.6 µg/mL
C[C@H]1[C@H](O)[C@@H](C)/C=C/C=C/C=C/C=C/C=C/C=C/C=C/[C@H](O[C@@H]2O[C@H](C)[C@@H](O)[C@H](N)[C@@H]2O)C[C@@H]2O[C@](O)(C[C@@H](O)C[C@@H](O)CC[C@H](O)[C@@H](O)C[C@@H](O)CC(=O)O[C@H]1C)C[C@H](O)[C@H]2C(=O)O | Y0109 | MIC | broth dilution | 4 µg/mL
O=c1[nH]n(-c2ccccc2)c(=O)c2cc3c(cc12)[nH]c1ccccc13 | Clinical isolates | MIC100 | agar | 64 µg/mL
Clc1ccccc1C=Nc1cccc(Cn2ccnc2)c1 | 27 strains | Mean MIC |  | 137.5 µg/mL
O=C(CC(=O)C(F)(F)F)c1ccccc1 |  | MIC |  | >50 µg/mL
CO[C@H]1[C@@H](O)[C@H](n2ccc(=O)[nH]c2=O)O[C@@H]1[C@@H](O[C@H]1OC(C(=O)O)=C[C@H](O)[C@@H]1O)C(N)=O | YU-1200 | MIC |  | >100 µg/mL
CCCCCOc1ccc(-c2ccc(-c3ccc(C(=O)N[C@H]4CCCNC(=O)C5C[C@H](NCC(N)CO)CN5C(=O)C(C(C)O)NC(=O)C(CCc5ccc(O)cc5)NC(=O)C5C[C@@H](O)CN5C(=O)C(C(C)O)NC4=O)cc3)cc2)cc1 | ATCC 10231 | MIC |  | 0.39 µg/mL
CC(C)=CCCCCCNC1NCCC2c3ccccc3CCN12 | NFI2103 | MIC |  | 32 µg/mL
c1csc(C(c2ccc3ccccc3c2)n2ccnc2)c1 | 23 strains | MIC90 |  | 8 µg/mL
COc1ccc(C(Cc2ccc(Cl)cc2Cl)C(c2ccc(OC)cc2)n2ccnc2)cc1 | 28 strains | EC50 |  | <256 µg/mL
NC(=S)NNC(=O)c1ccc([N+](=O)[O-])cc1 |  | MIC |  | >100 µg/mL
COc1ccc(CC(c2ccc(OC)cc2)n2cncn2)cc1 | 28 strains | MIC90 |  | 256 µg/mL
O=c1[nH]n(-c2ccccc2)c(=O)c2cc3c(cc12)[nH]c1ccc([N+](=O)[O-])cc13 | Clinical isolates | MIC50 | agar | 16 µg/mL
CC(C)Oc1ccc(C(=O)O)c(O)c1 | Clinical isolates | MIC |  | 125–250 µg/mL
CC(C)(O)c1cn(-c2ccc(Cl)cc2)nn1 | URM 4387 | MIC | broth dilution | 128 µg/mL
N/C(=N\NC(=O)c1ccc(Cl)cc1Cl)SCc1cccc(Cl)c1 |  | MIC |  | >100 µg/mL
COc1ccc(CC(c2ccc(OC)cc2)n2cnnc2)cc1 | 28 strains | MIC90 |  | 256 µg/mL
CCCCCOc1ccc(-c2ccc(-c3ccc(C(=O)N[C@H]4CCCNC(=O)C5C[C@H](NC(=O)NC)CN5C(=O)C(C(C)O)NC(=O)C(CCc5ccc(O)cc5)NC(=O)C5C[C@@H](O)CN5C(=O)C(C(C)O)NC4=O)cc3)cc2)cc1 | ATCC 10231 | MIC |  | 0.3 µg/mL
CC(=O)N1CCN(c2ccc(OCC3COC(Cn4ccnc4)(c4ccc(-c5ccccc5)cc4)O3)cc2)CC1 | 44 strains | EC50 |  | 32 µg/mL
CCCCCCCCCC(O)CC(=O)CCc1ccc(O)c(OC)c1 | A1-1 | MIC |  | >1000 µg/mL
COc1ccc(/C=N/O)cc1 |  | MIC100 |  | >6620 µM
CCOc1ccc(O)c(C(=O)NN)c1 | Clinical isolates | MIC |  | 125–250 µg/mL
O=C(O)c1cc2[nH]c3cc4c(=O)[nH]n(-c5ccccc5)c(=O)c4cc3c2cc1C(=O)O | Clinical isolates | MIC50 | agar | 256 µg/mL
O=C(Nc1cccc(Cn2ccnc2)c1)c1cccc(Cl)c1 | 27 strains | Mean MIC |  | 167 µg/mL
O/N=C/c1ccc(O)cc1 |  | MIC |  | >7290 µM
C=CCc1ccc(OC)c(OC)c1 | 177 | MIC90 | turbidity | 345 µg/mL
CCCCCCCCOc1ccc(N2CCN(c3ccc(C(=O)N[C@H]4CCCNC(=O)C5C[C@H](N)CN5C(=O)C(C(C)O)NC(=O)C(Cc5ccc(CO)cc5)NC(=O)C5CCCN5C(=O)C(C(C)O)NC4=O)cc3)CC2)cc1 | ATCC 62376 | MIC |  | 1.56 µg/mL
COc1ccc(C(Cc2ccc(Cl)cc2)n2cnnc2)cc1 | 28 strains | EC50 |  | <256 µg/mL
Clc1ccc(C(c2cccc3ccccc23)n2ccnc2)cc1 | 23 strains | MIC50 |  | 8 µg/mL
CC(C)Oc1ccc(C(=O)NN)c(O)c1 | Clinical isolates | MIC |  | 125–250 µg/mL
CCCCCCCCOc1ccc(N2CCN(c3ccc(C(=O)N[C@H]4CCCNC(=O)C5C[C@H](N)CN5C(=O)C(C(C)O)NC(=O)C(c5ccc(CO)cc5)NC(=O)C5CCCN5C(=O)C(C(C)O)NC4=O)cc3)CC2)cc1 | ATCC 62376 | MIC |  | 12.5 µg/mL
Fc1ccc(C(c2cccc3ccccc23)n2ccnc2)cc1 | 23 strains | Mean MIC |  | 7.1 µg/mL
C=CCS/C(N)=N/NC(=O)c1ccc(OC)cc1 |  | MIC |  | >100 µg/mL

For reference, 5 entries again:

structure	strain	read-out	method	value
O=[N+]([O-])c1ccc(CNc2cccc(Cn3ccnc3)c2)cc1	27 strains	Mean MIC		125 µg/mL
O/N=C\c1ccc(O)cc1		MIC100	broth dilution	>7290 µM
Clc1ccc(C(c2ccc3ccccc3c2)n2ccnc2)s1	23 strains	MIC90		8 µg/mL
CO[C@H]1[C@@H](O)[C@H](n2ccc(=O)[nH]c2=O)O[C@@H]1[C@@H](O[C@H]1OC(C(N)=O)=C[C@H](O)[C@@H]1O)C(N)=O	YU-1200	MIC		>100 µg/mL
Clc1ccc(C(c2cccc3ccccc23)n2ccnc2)cc1	23 strains	MIC50		8 µg/mL